The entries are a selection whose mix differs from that of the whole data set. The source made the active and inactive calls. Rule as the data show it: active = inhibition above about 33%; inactive = the rest.

Sequences of proteins named here, by UniProt entry; tags and fusion partners are left off.
UniProt P03206, whole entry: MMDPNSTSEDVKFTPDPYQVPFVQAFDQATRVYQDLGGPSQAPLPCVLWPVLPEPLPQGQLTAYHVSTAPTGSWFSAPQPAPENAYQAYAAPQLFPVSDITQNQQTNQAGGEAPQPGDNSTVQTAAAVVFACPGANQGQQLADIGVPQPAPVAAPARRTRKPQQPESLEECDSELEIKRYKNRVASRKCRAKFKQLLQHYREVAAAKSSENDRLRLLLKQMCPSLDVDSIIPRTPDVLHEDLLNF

The test concerns the target Lytic switch protein BZLF1 (Epstein-Barr virus (strain B95-8)) (UniProt P03206). The experiment in a line: Zta-DNA interaction blockers, Epstein-Barr virus – biochemical, fluorescence polarization, single concentration, counter-screen for EBNA-1 inhibitor project, primary screen (AID 2234). Conditions: ZTA-DNA binding, at 11 µM, stronger effect = higher value. (Polarisation of emitted light reports the rotation of a fluorescent probe.)
With `O=[As](O)(c1ccccc1Br)c1ccccc1Br`, the inhibition (commonly the relative decrease from the control value, in per cent) was inactive: -16.1%.

These data come from PubChem BioAssay AID2234 (The Scripps Research Institute Molecular Screening Center, 2010).
